PubChem BioAssay AID624099 | ICCB-Longwood – 2012
The deposit covers about 21,000 reagents; shown is a random part of them. 497 of all reagents (2.4%) count as active. 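Higher z means weaker E2 silencing; only reporter increases were scored, and knock-downs that hurt cell survival may mask genuine repressor factors.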 The numbers tell different reagents against one gene apart.

Aim: 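Human genes that papillomavirus E2 requires to repress the HPV18 LCR promoter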 (primary screen)
Cells: human C33A cervical carcinoma cells (HPV-negative) stably expressing BPV1 E2 and an HPV18 LCR luciferase reporter
Reagents: siRNA pool against human genes, 40 nM
Timing: 72 h
Detection: 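Per-well luciferase luminescence, z-scored on each plate against the plate mean and SD with control wells left out, then averaged across three replicate plates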
Reading the numbers: mean z-score and z-score: higher = stronger reporter signal, weaker E2 silencing
Active means: 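Hit if mean z-score reaches 2 and two or more of three replicate z-scores also reach 2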

gene knocked down | reagent no. | mean z-score | z-score, replicate A | z-score, replicate B | z-score, replicate C | call
EPCIP (exosomal polycystin 1 interacting protein) | 1 | 0.04 | 0.24 | 0.31 | -0.42 | inactive
CYLD (CYLD lysine 63 deubiquitinase) | 1 | -0.33 | -0.06 | -0.42 | -0.51 | inactive
LOC727983 (retired record) | 1 | 0.6 | 0.6 | 0.63 | 0.59 | inactive
VGLL2 (vestigial like family member 2) | 1 | 1.49 | 1.09 | 1.66 | 1.72 | inactive
MYG1 (MYG1 exonuclease) | 1 | 1.38 | 0.99 | 1.42 | 1.72 | inactive
TMED6 (transmembrane p24 trafficking protein 6) | 1 | -0.65 | -0.25 | -1.08 | -0.62 | inactive
ICAM5 (intercellular adhesion molecule 5) | 1 | 0.21 | 0.33 | 0.01 | 0.29 | inactive
LOC389276 (retired record) | 1 | -0.62 | -0.75 | -0.57 | -0.55 | inactive
PDZD4 (PDZ domain containing 4) | 1 | -0.11 | -0.28 | 0.22 | -0.28 | inactive
SPN (sialophorin) | 1 | 3.54 | 3.02 | 2.87 | 4.73 | active
SF3B6 (splicing factor 3b subunit 6) | 1 | 0.31 | 0.46 | 0.36 | 0.12 | inactive
VPS13D (vacuolar protein sorting 13 homolog D) | 1 | 0.69 | 0.89 | 0.79 | 0.39 | inactive
TNFSF13B (TNF superfamily member 13b) | 1 | -0.51 | -0.44 | -0.56 | -0.54 | inactive
HNRNPU (heterogeneous nuclear ribonucleoprotein U) | 1 | -0.07 | 0.08 | -0.25 | -0.02 | inactive
TAL2 (TAL bHLH transcription factor 2) | 1 | -0.72 | -0.58 | -0.84 | -0.75 | inactive
WDR83 (WD repeat domain 83) | 1 | -0.15 | -0.42 | -0.06 | 0.01 | inactive
KLHL35 (kelch like family member 35) | 1 | -0.42 | -0.31 | -0.34 | -0.6 | inactive
PFKP (phosphofructokinase, platelet) | 1 | -0.54 | -0.68 | -0.26 | -0.69 | inactive
SARS1 (seryl-tRNA synthetase 1) | 1 | 0.6 | 0.55 | 0.32 | 0.95 | inactive
ESPNL (espin like) | 1 | -1.13 | -0.93 | -1.24 | -1.21 | inactive
LZTFL1 (leucine zipper transcription factor like 1) | 1 | -0.56 | -0.46 | -0.67 | -0.54 | inactive
KATNIP (katanin interacting protein) | 1 | 0.67 | 0.85 | 0.54 | 0.62 | inactive
ECHS1 (enoyl-CoA hydratase, short chain 1) | 1 | 0.45 | 0.46 | 0.41 | 0.48 | inactive
FAM111A (FAM111 trypsin like peptidase A) | 1 | 0.43 | 0.46 | 0.11 | 0.71 | inactive
LRRIQ1 (leucine rich repeats and IQ motif containing 1) | 1 | 0.87 | 1.16 | 0.78 | 0.67 | inactive
SLX9 (SLX9 ribosome biogenesis factor) | 1 | 0.91 | 1.04 | 0.68 | 1.01 | inactive
POU2AF1 (POU class 2 homeobox associating factor 1) | 1 | -1.31 | -1.26 | -1.2 | -1.46 | inactive
IPO13 (importin 13) | 1 | 0.37 | 0.53 | 0.27 | 0.31 | inactive
LOC389707 (retired record) | 1 | -0.02 | -0.33 | -0.35 | 0.63 | inactive
LINC00879 (long independently transcribed non-coding RNA 879) | 1 | 0.33 | 0.29 | 0.07 | 0.62 | inactive
NME2 (NME/NM23 nucleoside diphosphate kinase 2) | 1 | -0.28 | -0.49 | -0.36 | 0.01 | inactive
FARP2 (FERM, ARH/RhoGEF and pleckstrin domain protein 2) | 1 | -0.59 | -0.51 | -0.84 | -0.42 | inactive
RHBDL2 (rhomboid like 2) | 1 | -0.29 | -0.59 | -0.52 | 0.25 | inactive
CDK5R1 (cyclin dependent kinase 5 regulatory subunit 1) | 1 | 0.5 | 0.43 | 0.42 | 0.64 | inactive
COPS7B (COP9 signalosome subunit 7B) | 1 | 0.9 | 0.85 | 1.04 | 0.8 | inactive
DCLK2 (doublecortin like kinase 2) | 1 | -0.39 | 0.23 | -0.57 | -0.84 | inactive
IL27RA (interleukin 27 receptor subunit alpha) | 1 | -1.11 | -1.1 | -0.95 | -1.27 | inactive
CYFIP2 (cytoplasmic FMR1 interacting protein 2) | 1 | -1.04 | -1.03 | -1.05 | -1.05 | inactive
ADAMTSL3 (ADAMTS like 3) | 1 | -0.48 | -0.39 | -0.47 | -0.58 | inactive
ARIH1 (ariadne RBR E3 ubiquitin protein ligase 1) | 1 | -0.86 | -0.82 | -1.02 | -0.74 | inactive
XTBD1 (XRN2 binding domain containing 1) | 1 | 0.54 | 0.19 | 0.55 | 0.88 | inactive
FCGR3B (Fc gamma receptor IIIb) | 1 | -0.19 | -0.09 | -0.19 | -0.28 | inactive
LINC00667 (long independently transcribed non-coding RNA 667) | 1 | -0.96 | -0.8 | -0.94 | -1.14 | inactive
LINC00667 (long independently transcribed non-coding RNA 667) | 2 | -0.02 | 0.36 | -0.5 | 0.07 | inactive
RCAN3 (regulator of calcineurin 3) | 1 | 1.04 | 1.01 | 1.04 | 1.08 | inactive
CERS1 (ceramide synthase 1) | 1 | -0.09 | -0.13 | -0.49 | 0.35 | inactive
TRIM13 (tripartite motif containing 13) | 1 | 0.92 | 0.55 | 1.14 | 1.08 | inactive
ELOVL7 (ELOVL fatty acid elongase 7) | 1 | 1.3 | 1.51 | 1.53 | 0.85 | inactive
CALN1 (calneuron 1) | 1 | 1.69 | 1.34 | 1.56 | 2.18 | inactive
UBE2DNL | 1 | 0.36 | 0.09 | 0.46 | 0.52 | inactive
TEDC1 (tubulin epsilon and delta complex 1) | 1 | -0.34 | -0.23 | -0.59 | -0.21 | inactive
EDDM3A (epididymal protein 3A) | 1 | 0.44 | 0.3 | 0.76 | 0.27 | inactive
ARL17A (ARF like GTPase 17A) | 1 | 0.07 | 0.2 | 0.1 | -0.08 | inactive
ACSL6 (acyl-CoA synthetase long chain family member 6) | 1 | -0.6 | -1.05 | -0.47 | -0.29 | inactive
CNOT9 (CCR4-NOT transcription complex subunit 9) | 1 | 0.32 | 0.18 | 0.49 | 0.28 | inactive
SLC27A2 | 1 | -0.04 | -0.46 | -0.05 | 0.39 | inactive
TSC22D2 (TSC22 domain family member 2) | 1 | -0.06 | -0.05 | 0 | -0.13 | inactive
